Measured values from several laboratories, pooled; numbers as filed in NIAID ChemDB.

Common to all: whole-cell or culture tests; species: HIV-1

Blank or dashed fields: not listed here.

structure,cell line,method,strain,endpoint,changes,result
CC(C)CN(C[C@@H](O)[C@H](Cc1ccccc1)NC(=O)O[C@H]1CCOC1)S(=O)(=O)c1ccc(N)cc1,MT-4,p24,NL4-3,EC90,PR-D30N A71V,0.02 µM
Nc1ccn([C@H]2C=C[C@@H](CO)O2)c(=O)n1,CD4+HELA + HeLa,plaque count,HXB2,EC50,RT-T215Y,0.6 µM
Cc1ccnc2c1NC(=O)c1cccnc1N2C1CC1,MT-2,RT activity,PDBC,EC50,-,0.15 µM
CC(C)=CCOc1cc(NC(=S)c2ccoc2C)ccc1Cl,CEM,cytopathic effect,-,EC50,-,0.003 µg/mL
Nc1nc2c(ncn2[C@H]2CO[C@@H](CO)O2)c(=O)[nH]1,Jurkat cells,-,IIIB,EC50,-,0.34 µM
CC(C)=CCc1c(O)cc2occ(-c3cc(O)c4c(c3)C=CC(C)(C)O4)c(=O)c2c1O,MT-4,MTT,IIIB,EC50,-,>20 µg/mL
CC(C)Nc1cccnc1N1CCN(C(=O)c2cc3cc(NS(C)(=O)=O)ccc3[nH]2)CC1,CEM,cytopathic effect,IIIB,EC50,RT-K103N,0.27 µg/mL
Cc1cn([C@H]2C[C@H](N=[N+]=[N-])[C@@H](CO)O2)c(=O)[nH]c1=O,PBL,RT activity,Clinical isolate,EC50,-,0.002 µM
Nc1ccn([C@H]2CC[C@@H](CO)O2)c(=O)n1,CBMC,p24,HXB2D (RT-M184V),EC50,RT-M184V,2.2 ± 0.3 µM
C[C@H](Cn1cnc2c(N)ncnc21)OCP(=O)(O)O,MT-2,p24,M184V (3TC-resistant RT M184V),EC50,RT-M184V,1.5 µM
Nc1ccn([C@@H]2CC[C@H](CO)O2)c(=O)n1,HT4 + HT4 LacZ-1,-,HXB2,EC50,-,5 µM
c1cc(CN2CCCNCCNCCCNCC2)ccc1CN1CCCNCCNCCCNCC1,PBMC,antigen,SF162 R5,EC50,-,>25 µg/mL
Nc1nc(=O)n([C@@H]2CS[C@H](CO)O2)cc1F,MT-2,cytopathic effect / XTT,Site-directed mutant,EC50,RT-K65R H221Y,10.5 µM
Cc1cn([C@H]2C[C@H](N=[N+]=[N-])[C@@H](CO)O2)c(=O)[nH]c1=O,MT-2,p24,L214F(RT-L214F),EC50,RT-L214F,0.009 µM
Cc1ccnc2c1NC(=O)c1cccnc1N2C1CC1,MT-2,MTT,IIIB,EC50,-,0.171 µM
Cc1cn([C@H]2C[C@H](N=[N+]=[N-])[C@@H](CO)O2)c(=O)[nH]c1=O,CEM,virus yield,LAV-1,EC50,-,<0.1 µM
c1ccc2c(c1)sc1nccn12,PBMC,cytopathic effect / XTT,IIIB,EC50,-,0.83 µM
O=C(/C=C/c1ccccc1)c1ccccc1O,MT-4,MTT,IIIB,EC50,-,>4 µg/mL
Cc1ccnc2c1NC(=O)c1cccnc1N2C1CC1,AA5,cytopathic effect / XTT,IIIB,EC50,-,0.07 µM
Cc1cc(C)c(Nc2ccnc(Nc3ccc(C#N)cc3)n2)c(C)c1,PBMC,absorbance,92UG029,EC50,-,0.0029 µM
CCc1cc(NCc2nc3c(Cl)ccc(Cl)c3o2)c(=O)[nH]c1C,CEM + CEM-SS,cytopathic effect / XTT,IIIB,EC50,-,0.05 µM
CC(C)=CCN1Cc2cc(Cl)cc3[nH]c(=S)n(c23)C[C@@H]1C,CEM,p24,IIIB,EC50,RT-Y181C,2 µg/mL
CCOP(=O)(COc1ccc(C[C@H](NC(=O)O[C@H]2CO[C@H]3OCC[C@H]32)[C@H](O)CN(CC(C)C)S(=O)(=O)c2ccc(OC)cc2)cc1)OCC,MT-2,ATP,IIIB,EC50,8374-P47 GS-8374-resistant,0.0488 µM
Cc1cn([C@@H]2O[C@H](CO[Si](C)(C)C(C)(C)C)C3(OS(=O)(=O)C=C3N)[C@H]2O[Si](C)(C)C(C)(C)C)c(=O)n(C)c1=O,CEM,cytopathic effect,IIIB,EC50,RT-E138K,>20 µg/mL
Cc1ccnc2c1NC(=O)c1cccnc1N2C1CC1,C8166,p24 / ELISA,NL4-3,EC50,-,0.01435 µM
Cc1cn([C@@H]2O[C@H](CO[Si](C)(C)C(C)(C)C)C3(OS(=O)(=O)C=C3N)[C@H]2O[Si](C)(C)C(C)(C)C)c(=O)n(C)c1=O,CEM,p24,IIIB,EC50,-,0.024 µg/mL
Nc1ncnc2c1ncn2[C@@H]1O[C@H](CO)C[C@@H]1F,MT-2,p24,RT A62V/V75I/F77L/F116Y/Q151M,EC50,RT-A62V V75I F77L F116Y Q151M,14 µM
O=c1[nH]cnc2c1ncn2[C@H]1CC[C@@H](CO)O1,CEM,syncytia,IIIB TIBO R82913 STR-B02 (RT L100I E138K),EC50,RT-L100I E138K,6.5 µM
Nc1ccn([C@H]2CC[C@@H](CO)O2)c(=O)n1,HT4 + HT4 LacZ-1,-,HXB2,EC50,-,0.38 µM
Cc1occc1C(=S)Nc1ccc(Cl)c(/C=N/OC(C)(C)C)c1,CEM,p24,IIIB,EC50,RT-V106A,0.13 µg/mL
CC(C)=CCN1Cc2cc(Cl)cc3[nH]c(=S)n(c23)C[C@@H]1C,CEM + CEM-SS,cytopathic effect / MTT,C,EC50,-,0.222 µM
CO[P@](=O)(c1cc(C)cc(/C=C/C#N)c1)c1c(C(N)=O)[nH]c2ccc(Cl)c(F)c12,U-937,-,BH10,EC50,-,0.0006 µM
Cc1ccnc2c1NC(=O)c1cccnc1N2C1CC1,CEM,cytopathic effect,IIIB,EC50,RT-E138K,0.12 µg/mL
Nc1ncnc2c1ncn2CCOCP(=O)(O)O,CEM,syncytia,IIIB TIBO R82913 STR-B02 (RT L100I E138K),EC50,RT-L100I E138K,17 µM
CC(C)CN(C[C@@H](O)[C@H](Cc1ccccc1)NC(=O)O[C@H]1CCOC1)S(=O)(=O)c1ccc(N)cc1,MT-2,p24 / ELISA,IIIB,EC50,K112M K113E V128I M200I H219P I401T R409K D437N L441P,0.0473 µM
O=C1N(Cc2ccc(CO)cc2)[C@H](COc2ccccc2)[C@H](O)[C@@H](O)[C@@H](COc2ccccc2)N1Cc1ccc(CO)cc1,MT-4,cytopathic effect / XTT,IIIB,EC50,PR-L90M,0.12 µM
CCC(=O)c1ccc(F)c([C@@H]2C[C@@H]2NC(=O)Nc2ccc(C#N)cn2)c1O,PBMC,absorbance,35764-2,EC50,-,0.0001 µM
Cc1cn([C@H]2C=C[C@@H](CO)O2)c(=O)[nH]c1=O,CD4+HELA + HeLa,plaque count,HXB2,EC50,RT-L74V,0.75 ± 0.2 µM
Cc1cn([C@H]2C=C[C@@H](CO)O2)c(=O)[nH]c1=O,MT-2,cytopathic effect / XTT,Site-directed mutant,EC50,RT-K65R H221Y,15.41 µM
COC(=O)N[C@H](C(=O)N[C@@H](Cc1ccccc1)[C@@H](O)CN(Cc1ccc(-c2ccccn2)cc1)NC(=O)[C@@H](NC(=O)OC)C(C)(C)C)C(C)(C)C,MT-2,p24 / ELISA,IIIB,EC50,D437N L441P,0.0011 µM
COc1ccc(-c2oc3cc(O)cc(O)c3c(=O)c2OC)cc1O,MT-4,cytopathic effect / MTT,IIIB,EC50,-,>0.16 µg/mL
O=c1[nH]cnc2c1ncn2[C@H]1CC[C@@H](CO)O1,MT-2,p24,P119S(RT-P119S),EC50,RT-P119S,1.3 µM
Cc1ccnc2c1NC(=O)c1cccnc1N2C1CC1,MT-4,-,-,EC50,RT-K70R K101E,<3 µM
CCc1c(C(=O)c2cc(C)cc(C)c2)n(CC2CC=CC2)c(=O)[nH]c1=O,CEM + CEM-SS,cytopathic effect / XTT,NL4-3,EC50,RT-K103N,>0.14 µM
Nc1ccn([C@H]2CC[C@@H](CO)O2)c(=O)n1,MT-2,RT activity,HX,EC50,-,0.22 µM
Fc1cccc(F)c1C1SCc2nc3ccccc3n21,MT-4,cytopathic effect,IIIB,EC50,-,0.66 µM
CC(C)=CCc1cc([C@@H]2CC(=O)c3c(O)cc(O)cc3O2)cc(O)c1O,MT-4,MTT,IIIB,EC50,-,11 µg/mL
Cc1cn([C@H]2C[C@H](N=[N+]=[N-])[C@@H](CO)O2)c(=O)[nH]c1=O,PBMC,cytopathic effect / XTT,SLKA (non-syncytium-inducing),EC50,-,0.02 µM
Cc1cn([C@@H]2O[C@H](CO[Si](C)(C)C(C)(C)C)C3(OS(=O)(=O)C=C3N)[C@H]2O[Si](C)(C)C(C)(C)C)c(=O)n(C)c1=O,CEM + CEM-SS,cytopathic effect / XTT,RF,EC50,-,0.04 µM
Cc1cc(=O)c2ccc(N=C=S)cc2o1,CEM-GFP,p24 / ELISA,NL4-3,EC50,-,0.157 µM
COC[C@@H](c1ccc(C(F)(F)F)cc1)N1CCN(C2(C)CCN(C(=O)c3c(C)ncnc3C)CC2)C[C@@H]1C,PBMC,luciferase,-,EC50,G516V F519I,0.0002 µM
CC(C)(C)OC(=O)N[C@@H](Cc1ccccc1)[C@H](O)CNC[C@@H](O)[C@H](Cc1ccccc1)NC(=O)C(C)(O)C(C)(C)C,CEM + CEM-SS,cytopathic effect / XTT,RF,EC50,-,0.06 µM
Nc1ccn([C@H]2CC[C@@H](CO)O2)c(=O)n1,MT-2,p24,P119S(RT-P119S),EC50,RT-P119S,0.36 µM
COc1c2c(cc(O)c1CC=C(C)C)OCC(c1ccc(O)cc1O)=C2,MT-4,MTT,IIIB,EC50,-,>20 µg/mL
Cc1ccnc2c1NC(=O)c1cccnc1N2C1CC1,C8166,antigen,NL4-3,EC50,V108I,0.433 µM
CCn1c(=O)c(C)cn([C@@H]2O[C@H](CO[Si](C)(C)C(C)(C)C)C3(OS(=O)(=O)C=C3N)[C@H]2O[Si](C)(C)C(C)(C)C)c1=O,CEM,syncytia,IIIB TIBO R82913 STR-B22 (RT L100I Y188H),EC50,RT-L100I Y188H,>50 µM
COc1ccc2c(c1)N(C(=O)OC(C)C)[C@@H](CSC)C(=S)N2,CEM,p24,IIIB,EC50,RT-G190E,>10 µg/mL
CCCc1cc(=O)oc2c3c(c4c(c12)OC(C)(C)C=C4)O[C@H](C)[C@@H](C)[C@@H]3O,U-937,cytopathic effect / XTT,IIIB,EC50,-,0.2 µM
CC(C)=CCN1Cc2cccc3[nH]c(=S)n(c23)C[C@@H]1C,CEM,syncytia,IIIB TIBO R82913 STR-1 (RT L100I Y181C),EC50,RT-L100I Y181C,≥5 µM
CC(C)=CCc1cc(C(=O)CC(=O)c2cc3c(cc2O)OC(C)(C)C=C3)ccc1O,MT-4,cytopathic effect / MTT,IIIB,EC50,-,>20 µg/mL
CC(C)=CCN1Cc2cccc3[nH]c(=S)n(c23)C[C@@H]1C,PBMC,cytopathic effect / XTT,IIIB,EC50,-,0.19 µM
O=C1CC(c2ccc(O)cc2)Oc2cc(O)ccc21,MT-4,MTT,IIIB,EC50,-,>100 µg/mL
Nc1ccn([C@H]2CC[C@@H](CO)O2)c(=O)n1,CEM,syncytia,IIIB TIBO R82913 STR-B02 (RT L100I E138K),EC50,RT-L100I E138K,0.015 µM
COc1ccc(C2CC(=O)c3c(O)cc(O)cc3O2)c(CC=C(C)C)c1OC,MT-4,MTT,IIIB,EC50,-,74 µg/mL
Fc1cccc(F)c1[C@@H]1SCc2nc3ccccc3n21,MT-4,cytopathic effect,MN,EC50,-,0.9 µM
CC1(C)C=Cc2c(cc(O)c3c(=O)c4c(oc23)-c2ccc(O)cc2OC(C(C)(C)O)C4)O1,MT-4,cytopathic effect / MTT,IIIB,EC50,-,>20 µg/mL
O=C1c2ccccc2C2(c3ccccc3)SCCN12,Macrophage + Monocytes/macrophages,p24 / ELISA,D79,EC50,-,0.083 µM

The first 5 rows once more:

structure | cell line | method | strain | endpoint | changes | result
CC(C)CN(C[C@@H](O)[C@H](Cc1ccccc1)NC(=O)O[C@H]1CCOC1)S(=O)(=O)c1ccc(N)cc1 | MT-4 | p24 | NL4-3 | EC90 | PR-D30N A71V | 0.02 µM
Nc1ccn([C@H]2C=C[C@@H](CO)O2)c(=O)n1 | CD4+HELA + HeLa | plaque count | HXB2 | EC50 | RT-T215Y | 0.6 µM
Cc1ccnc2c1NC(=O)c1cccnc1N2C1CC1 | MT-2 | RT activity | PDBC | EC50 | - | 0.15 µM
CC(C)=CCOc1cc(NC(=S)c2ccoc2C)ccc1Cl | CEM | cytopathic effect | - | EC50 | - | 0.003 µg/mL
Nc1nc2c(ncn2[C@H]2CO[C@@H](CO)O2)c(=O)[nH]1 | Jurkat cells | - | IIIB | EC50 | - | 0.34 µM

Conditions beyond the fields shown may differ between rows. ECn: concentration that inhibits the pathogen or its effect by n%.